The values below come from paper PMC7447754 (Nature Communications, 2020).

The subject of this experiment is SARS-CoV-2. As to the kind of experiment: Transmission electron microscopy assay of viral particles. As to conditions: SARS-CoV-2 premixed with peptide 1 h room temperature, negative staining; 200 μg ml-1 or 100 μg ml^−1.

As to `CC[C@H](C)[C@H](NC(=O)[C@H](C)NC(=O)CNC(=O)[C@@H](N)CC(N)=O)C(=O)N[C@@H](CS)C(=O)N[C@@H](Cc1c[nH]c2ccccc12)C(=O)NCC(=O)N1CCC[C@H]1C(=O)N[C@@H](CS)C(=O)N1CCC[C@H]1C(=O)N[C@H](C(=O)N[C@@H](C)C(=O)N[C@@H](Cc1ccccc1)C(=O)N[C@@H](CCCNC(=N)N)C(=O)N[C@@H](CCC(N)=O)C(=O)N[C@H](C(=O)NCC(=O)N[C@@H](CC(N)=O)C(=O)N[C@@H](CS)C(=O)NCC(=O)N[C@@H](CCCNC(=N)N)C(=O)N[C@@H](Cc1ccccc1)C(=O)N[C@@H](CCCNC(=N)N)C(=O)N[C@H](C(=O)N[C@@H](CCCNC(=N)N)C(=O)N[C@@H](CS)C(=O)N[C@@H](CS)C(=O)N[C@@H](CCCNC(=N)N)C(=O)N[C@H](C(=O)N[C@@H](CCCNC(=N)N)C(=O)O)[C@@H](C)CC)C(C)C)[C@@H](C)CC)[C@@H](C)O` [P9R], the “disruption of viral particles under TEM” value is “did not disrupt viral particles”.
